From PubChem BioAssay AID488862 (Broad Institute, 2010)
Only a part is listed here, and it is no random draw. Activity calls are given as the source filed them. Rule as the data show it: active = inhibition above about 52%; inactive = the rest.

Assay: inhibition of PrP 5' UTR reporter expression (AID 488862); also: 0 = median of the neutral control wells
Details: cell-based PrP 5' UTR mRNA reporter, plate reader; hits give high values; concentration not given here
For O=[N+]([O-])c1cc([N+](=O)[O-])c(-c2ccn[nH]2)s1, the inhibition was inactive: -13.1%.
In the case of COc1ccc(OP(C)(=O)Nc2cccc(F)c2)cc1 (configuration not stated), the inhibition is reported as inactive: -14.9%.
With Cc1cc(C)cc(OP(C)(N)=O)c1 (configuration not stated) the inhibition was inactive: -11%.
In the case of CCOC(=O)c1ccc(NP(C)(=O)Oc2ccccc2)cc1 (configuration not stated), the inhibition is reported as inactive: -18.3%.
With ClCCSc1nnc(-c2cccnc2)o1 the inhibition was inactive: -24.4%.
For COc1ccccc1OP(C)(=O)Nc1ccc(C)cc1 (configuration not stated), the inhibition was inactive: -5.5%.
For CC(C)c1ccc(OP(=O)(Nc2ccccn2)Oc2ccccc2F)cc1 (configuration not stated), the inhibition was inactive: 1.74%.
With Cc1ccc(NP(C)(=O)Oc2ccccc2)c(C)c1 (configuration not stated) the inhibition was inactive: -13.6%.
For COC(=O)C1(C)COP(=O)(N2CCCCCC2)OC1 (configuration not stated), the inhibition was inactive: -10.1%.
For CC(C)(C)c1ccc(OP(C)(=O)Nc2ccc(SC(F)(F)F)cc2)cc1 (configuration not stated), the inhibition was inactive: 2.59%.
With Cc1ccc(OP(=O)(Nc2ccc([N+](=O)[O-])cn2)Oc2ccc(C)cc2)cc1 the inhibition was inactive: -5.23%.
With Cc1cccc(C)c1OP(C)(N)=O (configuration not stated) the inhibition was inactive: 12.5%.
For Cc1ccc2nc3c(c(C)c2c1)CC(C(Cl)Cl)S3 (configuration not stated), the inhibition was inactive: -23.2%.
With O=[N+]([O-])c1ccc2c(c1)C=Nc1ccccc1O2 the inhibition was inactive: -0.96%.
In the case of O=[N+]([O-])c1cc([N+](=O)[O-])c(Nc2cccnc2)c([N+](=O)[O-])c1, the inhibition is reported as inactive: 0.27%.
For C[As](=O)(O)c1cccc(C(=O)O)c1, the inhibition was inactive: -11.1%.
With O=[As](O)(c1ccc(O)cc1)c1ccccc1O the inhibition was inactive: -13.6%.
With COc1cc(C(=O)NCC2(N3CCOCC3)CCCCC2)ccc1OCC(C)C the inhibition was inactive: 1.12%.
With O=[N+]([O-])c1ccc(-c2cc([N+](=O)[O-])c(O)c([N+](=O)[O-])c2)cc1 the inhibition was inactive: -13.1%.
With O=[N+]([O-])c1cc(Oc2ccc([N+](=O)[O-])cc2C(F)(F)F)cc([N+](=O)[O-])c1 the inhibition was inactive: -16.1%.
For COc1ccc(N/C(=N/P(=O)(N2CCOCC2)N2CCOCC2)N2CCOCC2)cc1, the inhibition was inactive: -16.4%.
With O=P1(N(CCCl)CCCl)OCCCN1CCCl (configuration not stated) the inhibition was inactive: -18.8%.
For O=P1(N(CCCl)CCCl)Nc2ccccc2N1, the inhibition was inactive: -19.7%.
In the case of COc1ccc2nc(NP(=O)(c3ccccc3)c3ccccc3)sc2c1, the inhibition is reported as inactive: -19.2%.
With COc1cc(I)ccc1[As](=O)(O)O the inhibition was inactive: -13.1%.
In the case of Cc1c2c(nc3ccccc13)SC(C(Cl)Cl)C2 (configuration not stated), the inhibition is reported as inactive: -23.2%.
With O=C(OC1CN2CCC1CC2)C12CC3CC(CC(C3)C1)C2 (configuration not stated) the inhibition was inactive: -7.54%.
With CCN(CC)CCCOC(=O)C(O)(c1ccccc1)c1ccccc1 the inhibition was inactive: -23.5%.
With Cc1cc(=O)[nH]c(N[N+](=O)[O-])n1 the inhibition was inactive: 4.71%.
For CCOP(=O)(Nc1cccc2ccccc12)OCC, the inhibition was inactive: -26.8%.
For CP(=O)(Nc1cccc(Br)c1)Oc1ccccc1 (configuration not stated), the inhibition was inactive: -17.2%.
For Cc1cc(C)cc(OP(C)(=O)Nc2ccccn2)c1 (configuration not stated), the inhibition was inactive: -16.9%.
In the case of Cc1ccc(NCCc2c([N+](=O)[O-])cc([N+](=O)[O-])cc2[N+](=O)[O-])cc1, the inhibition is reported as inactive: -16.9%.
With CCCOP(=S)(Nc1nc(N)cc(=O)[nH]1)OCCC the inhibition was inactive: -18.2%.
With Cc1ccc(C)c(NP(C)(=O)Oc2ccccc2)c1 (configuration not stated) the inhibition was inactive: -6.45%.
For O=[As](O)(c1cccc(O)c1)c1cccc(O)c1, the inhibition was inactive: -16.7%.
In the case of Cc1cccc(OCC(=O)OC2CN3CCC2CC3)c1 (configuration not stated), the inhibition is reported as inactive: -1.69%.
For Cc1cc(C)cc(OP(C)(=O)Nc2ccc(C)cc2C)c1 (configuration not stated), the inhibition was inactive: -25.5%.
With CCOC(=O)c1ccc(NP(C)(=O)Oc2cc(C)cc(C)c2)cc1 (configuration not stated) the inhibition was inactive: 14.4%.
In the case of O=C(OC1CN2CCC1CC2)c1ccc(Cl)cc1 (configuration not stated), the inhibition is reported as inactive: -27.7%.
With COc1cc(C(=O)NCC2(N3CCOCC3)CCCCC2)cc(Cl)c1OC(C)C the inhibition was inactive: -13.3%.
In the case of O=[As](O)(O)c1cccnc1, the inhibition is reported as inactive: -7.65%.
In the case of CS(=O)(=O)c1ccc(Cl)c(NC(=O)COC(=O)C(O)(c2ccccc2)c2ccccc2)c1, the inhibition is reported as inactive: -26.3%.
With COc1ccccc1OP(C)(=O)Nc1cccc(Br)c1 (configuration not stated) the inhibition was inactive: -22.1%.
With N#CCCN(C(=O)COC(=O)C(O)(c1ccccc1)c1ccccc1)c1ccc(F)cc1 the inhibition was inactive: -122%.
In the case of CCOP1(=S)c2c(C)nn(CCC#N)c2N=C(c2ccc(F)cc2)N1C (configuration not stated), the inhibition is reported as inactive: -10.4%.
With CN(C(=O)Cc1ccccc1)[C@@H]1CC[C@]2(CCCO2)C[C@H]1N1CCCC1 the inhibition was inactive: -15.8%.
With CN(C)C(=O)c1cc([N+](=O)[O-])cc2c1-c1c(cc([N+](=O)[O-])cc1[N+](=O)[O-])C2=O the inhibition was inactive: -1.15%.
For O=[N+]([O-])c1ccc2c(c1)nnn2O, the inhibition was inactive: 1.31%.
In the case of CN(C(=O)Cc1ccc(Cl)c(Cl)c1)[C@H]1CC[C@@]2(CCCO2)C[C@@H]1N1CCCC1, the inhibition is reported as inactive: -69.7%.
With CC1=NCCc2c1[nH]c1ccccc21.O=[N+]([O-])c1cc([N+](=O)[O-])c(O)c([N+](=O)[O-])c1 the inhibition was inactive: -0.23%.
In the case of NC(=O)Nc1ccc([As](=O)(O)O)cc1, the inhibition is reported as inactive: -6.12%.
With O=C(O)COc1ccc([As](=O)(O)O)cc1[N+](=O)[O-] the inhibition was inactive: -3.28%.
For Nc1ccccc1[As](=O)(O)c1ccccc1, the inhibition was inactive: -8.86%.
With O=C(O)c1cccc(Nc2c([N+](=O)[O-])cc([N+](=O)[O-])cc2[N+](=O)[O-])c1 the inhibition was inactive: 7.18%.
In the case of CCOP1(=S)c2c(C)nn(CCC#N)c2N=C(c2ccccc2F)N1C (configuration not stated), the inhibition is reported as inactive: -30.4%.
For O=P(Nc1nccs1)(c1ccccc1)c1nc2ccccc2s1 (configuration not stated), the inhibition was inactive: -2.35%.
For O=P(Nc1nccs1)(Oc1ccccc1)Oc1ccccc1, the inhibition was inactive: -12.6%.
With CS(=O)(=O)c1cc([N+](=O)[O-])c2no[n+]([O-])c2c1 the inhibition was inactive: 11.9%.
In the case of Nc1cccc([As](=O)(O)c2ccccc2)c1, the inhibition is reported as inactive: 0.782%.
With CP(=O)(Nc1ccc(SC(F)(F)F)cc1)Oc1ccccc1 (configuration not stated) the inhibition was inactive: -15.3%.
For CCCOc1ccc(NP(C)(=O)Oc2ccc(Cl)cc2)cc1 (configuration not stated), the inhibition was inactive: -10.4%.
